## Single amino acid changes in Zika NS2B-NS3 and viral growth

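Pools of virus carrying all single amino acid changes were selected for growth in Huh-7.5 cells. Deep sequencing gave the change in frequency of each mutant relative to wild type, averaged over three replicate libraries (two for positions 207-308). The aim was to find sites where inhibitor-binding pockets cannot change.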

Protein: NS2B and the protease part of NS3 of Zika virus strain MR766. Positions count along the chain below; NS2B spans 2-131 and NS3 starts at 132.
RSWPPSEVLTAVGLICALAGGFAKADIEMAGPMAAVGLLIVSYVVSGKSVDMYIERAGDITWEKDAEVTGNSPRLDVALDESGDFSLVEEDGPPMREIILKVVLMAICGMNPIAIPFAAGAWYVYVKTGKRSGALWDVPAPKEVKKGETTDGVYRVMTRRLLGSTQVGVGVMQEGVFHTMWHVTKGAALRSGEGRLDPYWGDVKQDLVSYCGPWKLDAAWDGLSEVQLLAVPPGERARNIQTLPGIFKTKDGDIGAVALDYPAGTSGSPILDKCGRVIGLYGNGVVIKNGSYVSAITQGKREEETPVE

The number is log2 of the effect relative to wild type; negative values mean reduced growth, higher values better tolerance.
Substitutions are written as wild-type residue, site number, new residue.
All changes here are to leucine.

* V153L: 0.61
* Y154L: -7.19
* R155L: -7.51
* V156L: -4.17
* M157L: -0.85
* T158L: -5.39
* R159L: -4.39
* R160L: -6.65
* G163L: -4.89
* S164L: -1.98
* T165L: -1.28
* Q166L: -7.34
* V167L: -6.34
* G168L: -6.54
* V169L: -7.44
* G170L: -7.20
* V171L: -6.89
* M172L: -3.11
* Q173L: -5.27
* E174L: -6.19
* G175L: -6.42
* V176L: -6.87
* F177L: -4.40
* H178L: -6.68
* T179L: -7.32
* M180L: -6.52
* W181L: -4.70
* H182L: -6.39
* V183L: -6.36
* T184L: -7.30
* K185L: -5.33
* G186L: -6.54
* A187L: -6.84
* A188L: -4.78
* R190L: -7.00
* S191L: -3.86
* G192L: -4.77
* E193L: -1.25
* G194L: -7.27
* R195L: -7.32
* D197L: -7.15
* P198L: -1.50
* Y199L: -5.62
* W200L: -7.58
* G201L: -7.31
* D202L: -6.84
* V203L: -8.26
* K204L: -8.36
* Q205L: -3.98

Extract of 5 entries:

substitution	effect (log2)
R195L	-7.32
K185L	-5.33
V156L	-4.17
Q173L	-5.27
S164L	-1.98

Positions 1-103, 104-206 and 207-308 were made and measured as separate libraries.
The authors count -1 or higher as tolerated. Position 1 is the last residue of NS2A.
Six mutants with high scores were retested singly and none clearly outgrew wild type, so positive values are not proof of better growth.

Source: Ni et al. 2025 (doi:10.1038/s41467-025-63602-z), supplementary data.